{
  "source": "patent US10189862B2",
  "about": "“Phenothiazine-pyridine compounds and uses thereof” (The Chinese University of Hong Kong, priority 2016, dated 2019)",
  "key": {"[1]": {"system": "A549 cell line", "test": "Photocytotoxicity (PDT), MTT assay", "assay_type": "cell-based", "experimental": "(§1) Cell lines and culture conditions: A549, HT29, MCF-7, MDA-MB-231 cell lines were maintained in RPMI1640 supplemented with fetal bovine serum (10%) and penicillin-streptomycin solution (1%), and WI38 cells were maintained in DMEM supplemented with fetal bovine serum (10%) and penicillin-streptomycin solution (1%). Approximately 1×10^4 (for A549, HT29, MCF-7, MDA-MB-231) or 1.5×10^4 (for WI38) cells per well were seeded in 96-well plate and incubated overnight light at 37° C. in a humidified atmosphere with 5% CO2.\n(§2) Photocytotoxicity: Cells were incubated with different concentrations of photosensitive drug for 1 h in the dark, then the medium in the well was sucked by a syringe, and washed by PBS. Then a solution of new medium was added, and illuminated by light. After irradiation, the cells were incubated under dark at 37° C. for another 24 h, and the cell viabilities were determined by MTT assay."}, "[2]": {"system": "HT29 cell line", "test": "Photocytotoxicity (PDT), MTT assay", "assay_type": "cell-based", "experimental": "as §1, §2"}},
  "data": [
    {"molecule": "CCCNc1cc2[s+]c3cc(N(CC)CC)ccc3nc2c2ccc(C)nc12.[Cl-]", "note": "[Compound 14, 9-(diethylamino)-3-methyl-5-(propylamino)pyrido[3,2-a]phenothiazin-7-ium chloride]", "values": [
      {"measurement": "Ratio of DK/PDT", "setting": "[1]", "value": 9.1},
      {"measurement": "Ratio of DK/PDT", "setting": "[2]", "value": 53.8}
    ]}
  ]
}
